Measurements: PubChem BioAssay AID624412 (The Scripps Research Institute Molecular Screening Center, 2012)
This is a selection; strong and weak results do not stand in their true shares. Active and inactive are the calls of the source. Cut-off read from the data, not from the text of the source: active = inhibition above about 7%; inactive = the rest.

Test system: methionyl-tRNA synthetase (Trypanosoma brucei brucei)
Assay: inhibition of trypanosome methionyl-tRNA synthetase – biochemical, luminescence, confirmation (AID 624412)
Conditions: T. brucei MetRS enzyme, luminescence (ATP depletion); at 11.9 µM; active compounds read high

How did the inhibition turn out when `CCC1=CC2Cc3nc4ccc(Cl)cc4c(N)c3C(C1)C2` (configuration not stated) was run?
Its inhibition is active: 96.1%.

How did the inhibition turn out when `O=P(Nc1nc2ccc(Cl)cc2s1)(c1ccccc1)c1ccccc1` was run?
Its inhibition is active: 44.8%.
